Compound potency records, mixed from different reports. Data source: NIAID ChemDB in PubChem.

Shared fields: growth or infection tests; organism: Adenovirus

An empty or dashed field is not shown.

CSc1nsc(-c2cccnc2)c1C#N ; endpoint: EC50 ; cell line: HEP-2 ; read by: plaque count ; strain: TYPE 2 ; value: >20 µM
Nc1ccc2c(O)cc(S(=O)(=O)[O-])cc2c1S(=O)(=O)[O-] ; endpoint: inhibition ; cell line: Human amnion AV3 cells ; tested at: 10 µg/mL ; read by: cytopathic effect ; strain: TYPE 3 ; value: 0%
Nc1ccn([C@H]2CC[C@@H](CO)O2)c(=O)n1 ; endpoint: EC50 ; cell line: HEP-2 ; strain: TYPE 2 ; value: 3.95 µg/mL
Cc1cc(-c2ccc(N=Nc3c(N)c(S(=O)(=O)O)cc4cc(S(=O)(=O)O)ccc34)c(C)c2)ccc1N=Nc1c(N)ccc2cc(S(=O)(=O)O)ccc12 ; endpoint: inhibition ; cell line: Human embryonic lung cells ; tested at: 50 µg/mL ; read by: cytopathic effect ; strain: TYPE 3 ; value: 20%
Nc1cnn([C@@H]2O[C@H](CO)[C@@H](O)[C@H]2O)c(=O)n1 ; endpoint: inhibition ; cell line: HEP-2 ; tested at: 0.5 µg/mL ; strain: TYPE 5 ; value: 61%
CSc1nsc(-c2cccc(Cl)c2)c1C#N ; endpoint: EC50 ; cell line: HEP-2 ; read by: plaque count ; strain: TYPE 2 ; value: >10 µM
Nc1c(S(=O)(=O)O)cc2cc(S(=O)(=O)O)cc(O)c2c1O ; endpoint: inhibition ; cell line: Human embryonic lung cells ; tested at: 10 µg/mL ; read by: cytopathic effect ; strain: TYPE 3 ; value: 60%
CC1(C(=O)O)CCC2(C)CCC3(C)C(=CC(=O)C4C5(C)CCC(OC(=O)C6CCCCC6C(=O)O)C(C)(C)C5CCC43C)C2C1 ; endpoint: inhibition ; tested at: 50 µM ; read by: virus yield ; strain: TYPE 5 ; value: 98%
CSc1nsc(-c2ccc(OS(=O)(=O)c3ccc(C)cc3)cc2)c1C#N ; endpoint: EC50 ; cell line: HEP-2 ; read by: plaque count ; strain: TYPE 2 ; value: >25 µM
NC(N)=Nc1cccc(C(=O)NCC(=O)NC(CC(=O)O)c2cccnc2)c1 ; endpoint: inhibition ; cell line: HeLa ; tested at: 100 µM ; strain: TYPE 2 ; value: 60%
COC(=O)[C@H]1[C@@H]2C[C@@H](O[C@@H]3O[C@H](C)[C@@H](O)[C@H](N)[C@@H]3O)/C=C/C=C/C=C/C=C/C=C/C=C/C=C/[C@H](C)[C@@H](O)[C@H](C)[C@H](C)OC(=O)C[C@H](O)C[C@H](O)[C@@H](O)CC[C@H](O)C[C@H](O)C[C@](O)(C[C@@H]1O)O2 ; endpoint: inhibition ; cell line: HFF ; tested at: 10 µg/mL ; read by: plaque count ; strain: TYPE 4 ; value: 3%
CCCCOc1ccc(-c2snc(SC)c2C#N)cc1 ; endpoint: EC50 ; cell line: HEP-2 ; read by: plaque count ; strain: TYPE 2 ; value: >50 µM
Cc1cc(-c2ccc(N=Nc3c(S(=O)(=O)O)cc4cc(S(=O)(=O)O)cc(N)c4c3O)c(C)c2)ccc1N=Nc1c(S(=O)(=O)O)cc2cc(S(=O)(=O)O)cc(N)c2c1O ; endpoint: inhibition ; cell line: Human amnion AV3 cells ; tested at: 5 µg/mL ; read by: cytopathic effect ; strain: TYPE 3 ; value: 0%
CSc1nsc(-c2c(Cl)cccc2Cl)c1C#N ; endpoint: EC50 ; cell line: HEP-2 ; read by: plaque count ; strain: TYPE 2 ; value: >5 µM
Cc1ccc(S(=O)(=O)O)cc1.N/C(=N\N=C\c1cccc2c([N+](=O)[O-])cccc12)NO ; endpoint: EC50 ; cell line: A549 ; read by: plaque count ; strain: ATCC (TYPE 8) ; value: 3.5 µM

2 of the rows above, restated:

structure,endpoint,cell line,tested at,read by,strain,value
Cc1cc(-c2ccc(N=Nc3c(N)c(S(=O)(=O)O)cc4cc(S(=O)(=O)O)ccc34)c(C)c2)ccc1N=Nc1c(N)ccc2cc(S(=O)(=O)O)ccc12,inhibition,Human embryonic lung cells,50 µg/mL,cytopathic effect,TYPE 3,20%
NC(N)=Nc1cccc(C(=O)NCC(=O)NC(CC(=O)O)c2cccnc2)c1,inhibition,HeLa,100 µM,,TYPE 2,60%

Percent inhibition refers to the dose given; in toxicity tests it is the harm to the cells. ECn is the concentration giving n% inhibition of infection, replication or growth. Neighbouring rows are from separate reports.